A mixed list of measured activities; the numbers were collected in NIAID ChemDB.

Shared fields: whole-cell or culture tests; agent: HIV-1; cell line: MT-4; measure: inhibition

Inhibition is in % at the dose shown (toxicity tests: loss of growth or viability). Neighbouring rows are from separate reports. Blank or dashed fields: not listed here.

SMILES,strain,mutations,read by,tested at,value
CC(C)(C)OC(=O)N[C@@H](Cc1ccccc1)[C@@H](O)[C@@H](NCc1ccc(CNC(=O)OCc2ccccc2)cc1)C(=O)N[C@H]1c2ccccc2C[C@H]1O,IIIB,,cytopathic effect / MTT,3 µM,0%
CO[C@H]1[C@@H](O)[C@H](n2cnc3c(N)ncnc32)[C@@H](O)[C@H](O)[C@@H]1O.O=C(O)/C=C/C(=O)O,IIIB,,cytopathic effect / MTT,10 µg/mL,22.4%
CC(C)Nc1cccnc1N1CCN(C(=O)c2ccc(-c3ccc(NS(C)(=O)=O)cc3)[nH]2)CC1,IIIB,,p24,0.8 µM,90%
C[C@@H]1[C@H](O)[C@@H](C)/C=C/C=C/C=C/C=C/C=C/C=C/C=C/[C@H](O[C@@H]2O[C@H](C)[C@@H](O)[C@H](N)[C@@H]2O)CC2O[C@](O)(CC(O)C(O)CCC(O)CC(O)CC(O)CC(=O)O[C@H]1C)CC(O)C2C(=O)O.O=S(=O)(O)O,LAV,,cytopathic effect,7.8 µg/mL,100%
Cc1c(Cc2c(F)cccc2F)nc(SC2CCCC2)[nH]c1=O,IIIB,,p24,0.15 µM,99.9%
CN1CCCC(CC2c3ccccc3Sc3ccccc32)C1,LAV,,,100 µg/mL,0%
CCc1cc(NCc2nc3c(Cl)ccc(Cl)c3o2)c(=O)[nH]c1C,MFE30(RT-P236L),RT-P236L,antigen,0.01 µM,100%
Cc1cn([C@H]2C[C@H](N=[N+]=[N-])[C@@H](CO)O2)c(=O)[nH]c1=O,IIIB,,p24,0.04 µM,65%
CCc1cc(NCc2nc3c(Cl)ccc(Cl)c3o2)c(=O)[nH]c1C,RF,,p24,0.05 µM,95%
C[C@H](NC(=O)[C@H](CCCN=C(N)N)NC(=O)c1ccc(CNCc2ccccn2)cc1)c1cccc2ccccc12,IIIB X4 laboratory isolate,,cytopathic effect / MTT,0.06 µM,~100%
Cn1c(=O)c2c(ncn2C)n(C)c1=O,LAV,,,100 µg/mL,0%
CO[C@H]1[C@@H](O)[C@H](n2cnc3c(N)ncnc32)[C@@H](O)[C@H](O)[C@@H]1O,IIIB,,cytopathic effect / MTT,10 µg/mL,68.4%
CSc1nc(N)nc2c1ncn2[C@H]1C[C@H](N=[N+]=[N-])[C@@H](CO)O1,IIIB,,cytopathic effect,200 µM,8%
CO[C@@H]1[C@@H](O)[C@@H](O)[C@H](O)[C@H](O)[C@H]1n1ccc(N)nc1=O,IIIB,,cytopathic effect / MTT,10 µg/mL,46.9%
CC(C)C(NS(=O)(=O)N(C)Cc1ccccn1)C(=O)N[C@@H](Cc1ccccc1)C(O)[C@H](Cc1ccccc1)NC(=O)C(NS(=O)(=O)N(C)Cc1ccccn1)C(C)C,IIIB,,cytopathic effect,100 µM,0%
CC(C)(C)OC(=O)N[C@@H](Cc1ccccc1)[C@@H](O)[C@@H](NCc1ccc(OCCO)cc1)C(=O)NCc1ccccc1,IIIB,,cytopathic effect / MTT,3 µM,0%
CC(=O)Nc1ccc(OC(=O)c2ccc(N=C(N)N)cc2)cc1,,,XTT / p24,100 µg/mL,100%
C=CCOc1ccccc1OCC(O)CNC(C)C,LAV,,,100 µg/mL,0%
CCC(c1cc(=O)[nH]c(SC2CCCC2)n1)c1c(F)cccc1F,IIIB,,p24,0.3 µM,99.9%
CC(=O)CCCCn1c(=O)c2c(ncn2C)n(C)c1=O,LAV,,,100 µg/mL,0%
CC(C)(C)OC(=O)N[C@@H](Cc1ccccc1)[C@@H](O)[C@@H](NCc1ccc(CNC(=O)Nc2ccccc2)cc1)C(=O)N[C@H]1c2ccccc2C[C@H]1O,IIIB,,cytopathic effect / MTT,3 µM,0%
CC1(C)[C@@H](O[C@H]2O[C@H](C(=O)O)[C@@H](O)[C@H](O)[C@H]2O[C@@H]2O[C@H](C(=O)O)[C@@H](O)[C@H](O)[C@H]2O)CC[C@]2(C)[C@H]3C(=O)C=C4[C@@H]5C[C@@](C)(C(=O)O)CC[C@]5(C)CC[C@@]4(C)[C@]3(C)CC[C@@H]12,EVK,,ELISA,500 µg/mL,95.3%
CCC(c1cc(=O)[nH]c(SC(C)C)n1)c1c(F)cccc1F,IIIB,,p24,0.09 µM,99.9%
Cc1cn([C@H]2C[C@H](N=[N+]=[N-])[C@@H](CO)O2)c(=O)[nH]c1=O,IIIB,,p24,1 µM,100%
COc1ccc(CN[C@@H](C(=O)N[C@H]2c3ccccc3C[C@H]2O)[C@H](O)[C@H](Cc2ccccc2)NC(=O)[C@@H](NC(=O)OC(C)(C)C)C(C)(C)C)cc1,IIIB,,cytopathic effect / MTT,3 µM,0%
[N-]=[N+]=N[C@H]1C[C@H](n2cnc3c(=S)nc(N)[nH]c32)O[C@@H]1CO,IIIB,,cytopathic effect,32 µM,20%
CO[C@H]1[C@@H](O)[C@H](n2ccc(N)nc2=O)[C@@H](O)[C@H](O)[C@@H]1O.O=C(O)/C=C/C(=O)O,IIIB,,cytopathic effect / MTT,10 µg/mL,36.6%
C1CNCCNCCCN[C@H]([C@@H]2CNCCCNCCNCCCN2)CNC1,RF,,cytopathic effect / MTT,0.87 µM,90%
NS(=O)(=O)c1cc(C(=O)O)c(NCc2ccco2)cc1Cl,LAV,,,100 µg/mL,0%
COC1=C2[C@@H]3Cc4ccc(OC)c(O)c4[C@]2(CCN3)CC(OC(C)=O)C1OC(C)=O,IIIB,,cytopathic effect / visual reading,7.8 µg/mL,100%

For reference, 3 entries again:

SMILES,strain,mutations,read by,tested at,value
CC(C)Nc1cccnc1N1CCN(C(=O)c2ccc(-c3ccc(NS(C)(=O)=O)cc3)[nH]2)CC1,IIIB,,p24,0.8 µM,90%
Cc1cn([C@H]2C[C@H](N=[N+]=[N-])[C@@H](CO)O2)c(=O)[nH]c1=O,IIIB,,p24,0.04 µM,65%
CO[C@H]1[C@@H](O)[C@H](n2ccc(N)nc2=O)[C@@H](O)[C@H](O)[C@@H]1O.O=C(O)/C=C/C(=O)O,IIIB,,cytopathic effect / MTT,10 µg/mL,36.6%